Experimental data from article PMC12415213, “A genome-scale drug discovery pipeline uncovers therapeutic targets and a unique p97 allosteric binding site in Schistosoma mansoni” (Proceedings of the National Academy of Sciences of the …, 2025).

Tested on: recombinant S. mansoni p97
Test: In-gel LC-MS/MS of peptides of p97 modified by covalent inhibitors
Set-up: species or system Schistosoma mansoni
Settings: 100 μM inhibitor, trypsin digest

Row | SMILES | Abundance of modified peptide [K].ETVCVAIVDESCPDDKIR.[L] (63-80) | Abundance of modified peptide [K].FGMTPSKGVLFYGPPGCGK.[T] (503-521) | Abundance of modified peptide [K].GVLFYGPPGCGK.[T] (510-521, contains Cys519) | Abundance of modified peptide [K].IANEAHGHVGADLASLCSEAALQQIR.[N] (396-421) | Abundance of modified peptide [R].EDEEEKLNEIGYDDIGGCR.[K] (189-207) | Abundance of modified peptide [R].QAAPCVLFFDELDSIAK.[A] (565-581) | Abundance of modified peptide [K].ATQGFSGADLTEICQR.[A] (675-690) | Abundance of modified peptide [K].LNEIGYDDIGGCR.[K] (195-207) | Abundance of modified peptide [K].LNEIGYDDIGGCRK.[Q] (195-208) | Abundance of modified peptide [K].REDEEEKLNEIGYDDIGGCR.[K] (188-207) | Abundance of modified peptide [K].REDEEEKLNEIGYDDIGGCRK.[Q] (188-208) | Abundance of modified peptide [K].VIETDPSPYCIVSPDTTIHTEGDPVK.[R] (162-187) | Abundance of modified peptide [K].VIETDPSPYCIVSPDTTIHTEGDPVKR.[E] (162-188) | Abundance of modified peptide [K].VIETDPSPYCIVSPDTTIHTEGDPVKREDEEEK.[L] (162-194)
1 | O=C(C#Cc1ccccc1)Nc1ccc2oc(-c3ccncc3)nc2c1 [Compound 242] | 1.51E+05 | 1.01E+05 | 8.13E+08 | 1.78E+06 | 1.10E+06 | 4.97E+06 |  |  |  |  |  |  |  | 
2 | O=C(C#Cc1ccccc1)Nc1ccc2oc(-c3ccccn3)nc2c1 [Compound 243] | 2.02E+06 | 1.53E+06 | 3.54E+09 | 5.64E+07 | 1.48E+07 | 5.59E+06 | 5.89E+06 | 8.32E+06 | 1.47E+07 | 3.26E+06 | 2.02E+06 | 5.08E+06 | 1.29E+07 | 5.90E+05
